Compound potency records, mixed from different reports. Data source: NIAID ChemDB in PubChem.

All rows: host cell toxicity; endpoint: CC50

An empty or dashed field is not shown. Lines come from different laboratories, so protocols vary. CCn: concentration that lowers growth or viability of the cells by n%.

compound,cell line,read by,result
O=C(NCC1CCc2ccccc2N1)Nc1ccc(Cl)c(Cl)c1,PBMC,-,6.3 µM
Cc1cn([C@H]2S[C@@H](CO)[C@H](O)[C@H]2F)c(=O)[nH]c1=O,CCRF-HSB-2,-,2.5 µM
CC(C)N(Cc1cccc(OCCCCCC(=O)OC(=O)O)c1)C(=O)c1ccc(-c2cccc(F)c2)cc1,BJ,-,>20 µM
CC(=O)c1ccc(S(=O)(=O)NCCc2ccc3c(n2)NCCC3)cc1Cl,PBMC,-,50 µM
Nc1nc(N)c2ncn([C@@H]3O[C@H](CO)[C@@H](O)[C@@H]3O)c2n1,CCRF-HSB-2,-,6 µM
CCOC(=O)CCCCCOc1cccc(CN(C(=O)c2ccc(-c3cccc(Br)c3)cc2)C(C)C)c1,RAJI,-,>20 µM
CO[C@H]1O[C@H](Cn2c(C)cc(=O)[nH]c2=O)[C@H](O)[C@H]1OCc1ccccc1F,MOLT 4/C8,-,155 µM
COC(=O)[C@H](Cc1ccccc1)NP(=O)(OC[C@@H]1C=C[C@H](n2ccc3c(N)ncnc32)C1)Oc1ccccc1,HepG2 2.2.15,-,51 µM
O=C(NCCCc1cnc2c(c1)CCCN2)Nc1ccc(Cl)c(Cl)c1,PBMC,-,7 µM
C[C@H](NP(=O)(OC[C@H]1C=C[C@@H](n2ccc3c(N)ncnc32)C1)Oc1ccccc1)C(=O)OCc1ccccc1,HepG2 2.2.15,-,>11 µM
O=C(NCCc1ccc2c(n1)NCCC2)NCCc1ccc(Cl)cc1Cl,PBMC,-,9 µM
CCC[C@@H](C)[C@@H]1OC(=O)[C@H](C(C)C)N(C)C(=O)[C@H](CO)NC(=O)[C@H]([C@H](C)C(N)=O)NC(=O)[C@@H](C(C)OC(N)=O)NC(=O)[C@H](O)CNC(=O)/C=C/C=C/C[C@H](O)[C@H]1C,HCT116,MTT,>25 µg/mL
CC(C)N(Cc1cccc(OCCCCCC(=O)OC(=O)O)c1)C(=O)c1ccc(-c2cccc(Oc3ccccc3)c2)cc1,HEK 293,-,<13.5 µM
COC(=O)[C@H](C)NP(=O)(OC[C@@H]1C=C[C@H](n2ccc3c(N)ncnc32)C1)Oc1ccccc1,HepG2 2.2.15,-,81 µM
C[C@@H]1[C@H](O)c2c(c3c(c4c(-c5ccccc5)cc(=O)oc24)OC(C)(C)C=C3)O[C@@H]1C,HOG.R5,-,49.5 µM
Nc1nc2c(ncn2[C@@H]2S[C@H](CO)[C@@H](O)[C@@H]2F)c(=O)[nH]1,CCRF-HSB-2,-,11.9 µM
CCOC(=O)c1cc(C(=O)c2ccco2)n2ccc(C(=O)NCc3ccccn3)cc12,H9,MTT,89.7 µM
Nc1nc2c(ncn2COCCO)c(=O)[nH]1,CBMC,-,>200 µg/mL
COC(=O)N[C@@H]1[C@H](C)O[C@@H](OC2C/C=C(\C)[C@H]3C=C[C@H]4[C@H](OC5C[C@@H](OC6C[C@@H](O)[C@@H](OC7C[C@@H](O)[C@@H](OC)[C@H](C)O7)[C@H](C)O6)[C@@H](O)[C@H](C)O5)[C@H](C)C[C@@H](C)[C@@H]4[C@@]3(C)/C(O)=C3/C(=O)OC4(C[C@H](C)C(C=O)=C[C@H]4/C=C\2C)C3=O)C[C@@]1(C)[N+](=O)[O-],CEM-TART lymphoblastoid cells,MTT,8.6 µM
O=C(NCCc1ccc2c(n1)NCCC2)Nc1ccccc1F,PBMC,-,50 µM
CCc1cn([C@@H]2O[C@H](CO)[C@@H](O)[C@@H]2O)c(=O)[nH]c1=O,CCRF-HSB-2,-,>367 µM
CO[C@H]1O[C@H](Cn2cc(Cl)c(=O)[nH]c2=O)[C@H](O)[C@H]1OCc1ccccc1F,MOLT 4/C8,-,134 µM
COC(=O)C(C)(C)NP(=O)(OC[C@H]1C=C[C@@H](n2ccc3c(N)ncnc32)C1)Oc1ccccc1,HepG2 2.2.15,-,>2 µM
CCCCCC1(CCCCC)Cc2c(cc(C(C)(C)C)c(O)c2C(C)(C)C)O1,FLR3-1 cells,-,1000 µM
Nc1nc2c(ncn2CCC(CO)CO)c(=O)[nH]1,CBMC,-,>200 µg/mL
Nc1ncnc2c1ncn2[C@@H]1O[C@H](CO)[C@@H](O)[C@@H]1O,CCRF-HSB-2,-,52 µM
COC1=CC(=O)c2c(O)c(C)c3cc(C)oc3c2C1=O,Panc-1,MTT,2.6 µg/mL
O=c1[nH]c(=O)n([C@@H]2O[C@H](CO)[C@@H](O)[C@@H]2F)cc1I,CCRF-HSB-2,-,4 µM
CC(C)Oc1cccc(-c2ccc(C(=O)N(Cc3cccc(OCCCCCC(=O)OC(=O)O)c3)C(C)C)cc2)c1,HEK 293,-,>20 µM
[O-][n+]1onc2ncnc(N3CC[N+]4(CC3)CC[N+]3(CCN(c5ncnc6no[n+]([O-])c56)CC3)CC4)c21,HELF,XTT,330 µM
COC(=O)N[C@@H]1[C@H](C)O[C@@H](OC2C/C=C(\C)[C@H]3C=C[C@H]4[C@H](OC5C[C@@H](OC6C[C@@H](O)[C@@H](OC7C[C@@H](O)[C@@H](OC)[C@H](C)O7)[C@H](C)O6)[C@@H](O)[C@H](C)O5)[C@H](C)C[C@@H](C)[C@@H]4[C@@]3(C)/C(O)=C3/C(=O)OC4(C[C@H](C)C(CO)=C[C@H]4/C=C\2C)C3=O)C[C@@]1(C)[N+](=O)[O-],CEM-TART lymphoblastoid cells,MTT,0.3 µM
CCOC(=O)CCCCCOc1cccc(CN(C(=O)c2ccc(-c3cc(C(F)(F)F)cc(C(F)(F)F)c3)cc2)C(C)C)c1,RAJI,-,>20 µM
COc1cc(O)c2c(c1O)C(=O)c1cc(C)ncc1C2=O,Panc-1,MTT,120.5 µg/mL
COc1ccc2c(c1)C=C1Cn3c-2c(C2CCCCC2)c2ccc(cc23)C(=O)NS(=O)(=O)N(C)CCOCCN(C)C1=O,HEK293T,resazurin,>50 µM
Nc1nc2c(ncn2COC(CO)OCP(=O)(O)O)c(=O)[nH]1,CBMC,-,103.5 µg/mL
CC(C)N(Cc1cccc(OCCCCCC(=O)OC(=O)O)c1)C(=O)c1ccc(-c2c[nH]c3ccccc23)cc1,HEK 293,-,>20 µM
CCOC(=O)c1cc(C(=O)N2CCOCC2)n2ccc(C(=O)NCc3ccccn3)cc12,H9,MTT,236.8 µM
COC1=CC(=O)c2c(O)c(C)c(CC(C)=O)c(O)c2C1=O,Panc-1,MTT,2 µg/mL
O=c1[nH]c(=O)n([C@@H]2O[C@H](CO)[C@@H](O)[C@@H]2O)cc1/C=C/Cl,CCRF-HSB-2,-,>328 µM
CCOC(=O)c1cc(C(=O)c2ccc(Cl)cc2)n2ccc(C(=O)NCc3ccccn3)cc12,H9,MTT,142.2 µM
COc1ccc(CNC(=O)NCCc2ccc3c(n2)NCCC3)c(OC)c1,PBMC,-,50 µM
O=c1[nH]c(=O)n([C@@H]2S[C@H](CO)[C@@H](O)[C@@H]2F)cc1I,CCRF-HSB-2,-,144 µM
O=C(Cc1ccc(Cl)c(Cl)c1)NCCc1ccc2c(n1)NCCC2,PBMC,-,35 µM
CCOC(=O)c1cc(C(=O)c2ccccc2N)n2ccc(C(=O)NCc3ccccn3)cc12,H9,MTT,247.5 µM
O=C(O)P(=O)(O)O,CBMC,-,>200 µg/mL
CC(C)Oc1ccccc1NC(=O)NCCc1ccc2c(n1)NCCC2,PBMC,-,5.7 µM
CO[C@H]1O[C@H](Cn2cc(Br)c(=O)[nH]c2=O)[C@H](O)[C@H]1OCc1ccccc1F,MOLT 4/C8,-,102 µM
CCOC(=O)c1cc(C(=O)c2cccs2)n2ccc(C(=O)NCc3ccccn3)cc12,H9,MTT,53.4 µM
Cc1n[nH]c(=S)n1N,Fibroblast L929,MTT,>100 µg/mL
CC(C)=CCc1c(O)cc2oc3ccc4c(c3c(=O)c2c1O)C=CC(C)(C)O4,HOG.R5,-,15.8 µM

A second listing of 4 rows from above:

{"compound": "COC1=CC(=O)c2c(O)c(C)c3cc(C)oc3c2C1=O", "cell line": "Panc-1", "read by": "MTT", "result": "2.6 µg/mL"}
{"compound": "CC(C)N(Cc1cccc(OCCCCCC(=O)OC(=O)O)c1)C(=O)c1ccc(-c2c[nH]c3ccccc23)cc1", "cell line": "HEK 293", "result": ">20 µM"}
{"compound": "Nc1nc2c(ncn2[C@@H]2S[C@H](CO)[C@@H](O)[C@@H]2F)c(=O)[nH]1", "cell line": "CCRF-HSB-2", "result": "11.9 µM"}
{"compound": "Nc1ncnc2c1ncn2[C@@H]1O[C@H](CO)[C@@H](O)[C@@H]1O", "cell line": "CCRF-HSB-2", "result": "52 µM"}